Test system: native TTX-S NaV channels in mouse DRG neurons
Assay: Manual whole cell patch clamp, native TTX-S NaV channels in mouse DRG neurons
Assay type: cell-based
Details: 1 μM (highest concentration tested), 20% of NaV channels inactivated, n = 2

C#CC[C@H](N)C(=O)N[C@@H](Cc1ccc(O)cc1)C(=O)N[C@H]1CSSC[C@@H]2NC(=O)[C@@H]3CSSC[C@@H](C(=O)N[C@@H](CCCNC(=N)N)C(=O)N[C@@H](CCCCN)C(=O)N[C@@H](CCC(=O)O)C(=O)N[C@H](C(N)=O)[C@@H](C)CC)NC(=O)[C@H](Cc4c[nH]c5ccccc45)NC(=O)[C@H](CC(C)C)NC(=O)[C@H](CCCCN)NC(=O)[C@H](CSSC[C@H](NC(=O)[C@H]([C@@H](C)O)NC(=O)[C@H](Cc4c[nH]c5ccccc45)NC(=O)[C@H](CCCC)NC(=O)[C@H](Cc4c[nH]c5ccccc45)NC(=O)[C@H](CCCCN)NC(=O)[C@H](CCC(N)=O)NC1=O)C(=O)N[C@@H](CC(=O)O)C(=O)N[C@@H](CO)C(=O)N[C@@H](CCCCN)C(=O)N[C@@H](CCCNC(=N)N)C(=O)N[C@@H](C)C(=O)N3)NC(=O)[C@H](CCCNC(=N)N)NC(=O)[C@H](CCC(=O)O)NC(=O)CNC(=O)[C@H](CCC(=O)O)NC2=O [AM-8394, Pra-[Nle6;Glu19,28]JzTx-V(1–29)]
inhibition of TTX-S NaV channels in mDRG neurons: 3.5 ± 1.1%
